Results from US8591908B2 (Institute of Immunology, PLA, priority 2002, dated 2013).
Ends that are not written are not given here. * marks the point of attachment. Palmitoyl = CCCCCCCCCCCCCCCC(=O)*

Assay: general procedure: Fmoc solid-phase peptide synthesis; HMP-resin; HOBt/DCC; symmetrical anhydride for first amino acid
Settings: whole synthesis; for final HPLC purity: 214 nm

Substance	crude HPLC purity	final HPLC purity (RP-HPLC) [%]	final HPLC purity (gel chromatography) [%]
CH3(CH2)14COKSSQYIKANSK FIGITEAAAPLGFFPDHGGGDPRVRGLYFPA	about 81%	–	–
CH3(CH2)14COKSSPADRE GGGLLVPFVQWFVSSSDPRVRGLYFPA	about 75%	–	–
CH3(CH2)16COKSSPADREAAA LLPIFFCLWVGGGDPRVRGLYFPA	about 80%	–	–
CH3(CH2)16COKSSQYIKANSKFI GITEAAAFLPSDFFPSVGGGDPRVRGLYFPA	about 80%	–	–
CH3CH2CH═CHCH2CH═CH(CH2)CH═CH(CH2)7COKSSPADREGGGWLSLLVPFVSSSDPR VRGLYFPARGLYFPA	about 80%	–	–
CH3(CH2)14COKSSQYIKANSKFI GITEAAAFLPSDFFPSVGGGCTKPTDGNCT	about 85%	–	–
CH3(CH2)10COKSSPADRE GGGSLNFLGGTTVSSSDPRVRGLYFPA	about 80%	–	–
CH3(CH2)16COKSSPADREAAA FLGGTPVCLGGGDPRVRGLYFPA	about 74%	–	–
CH3(CH2)14COKSSPADREAAA GLSPTVWLSVGGGDPRVRGLYFPA	about 78%	–	–
CH3(CH2)16COKSSPADREAAA LLDYQGMLPVGGGDPRVRGLYFPA	about 80%	–	–
K(Palmitoyl)SSQYIKANSKFIGITEAAAFLPSDFFPSVGGGDPRVRGLYFPA-OH	about 80%	99.9	99.8
CH3(CH2)14COKSSQYIKAN SKFIGITEGGGFLPSDFFPSVSSSDPRVRGLYFPA	about 80%	–	–
CH3(CH2)16COKSSPADRESSS FLLTRILTIGGGDPRVRGLYFPA	about 80%	–	–
CH3(CH2)14COKSSYIKANSK FIGITEAAAMQWNSTALHQALQDPGGGDPRVRGLYFPA	about 86%	–	–
CH3(CH2)14COKSSQYIKA NSKFIGITEAAALLCLIFLLVGGGDPRVRGLYFPA	about 85%	–	–
CH3(CH2)14COKSSPADREAAA FLPSDFFPSVGGGDPRVRGLYFPA	about 80%	–	–
CH3(CH2)16COKSSPADREAAA STLPETTVVRRGGGDPRVRGLYFPA	about 82%	–	–
CH3(CH2)14COKSSQYIKANSK FIGITEAAASIVSPFIPLLGGGDPRVRGLYFPA	about 79%	–	–
CH3(CH2)7CH═CH(CH2)—CO, CH3CH2CH═CHCH2CH═CH(CH2)7CO7KSSQYIKANSKFIGITEGGGDPRVRGLYFPA	about 80%	–	–
CH3(CH2)14COKSSQYIKANSKFIG ITEAAAGLSPTVWLSVGGGDPRVRGLYFPA	about 78%	–	–
CH3(CH2)14COKSSPDAREAAA ILSKTGDPVGGGDPRVRGLYFPA	about 78%	–	–
CH3(CH2)16COKSSQYIKANSKFI GITEAAAYVNTNMGGGGDPRVRGLYFPA	about 83%	–	–
CH3(CH2)14COKSSQYIKAN SKFIGITEAAAYVNTNMGLKGGGDPRVRGLYFPA	about 81%	–	–
